From patent US20260034277A1, “SYSTEMS AND METHODS FOR PATHOGEN INACTIVATION OF BLOOD PRODUCTS” (Cerus Corporation, priority 2024, published 2026) come the findings set out here.

The series can be described thus: Residual amotosalen (S-59) pre- and post-UVA in treated platelets, HPLC, manual dosing. Particulars: for Pre-UVA S-59: platelets 47% plasma/53% PAS. Format: physicochemical. The protocol: Multiple studies were performed to determine the level of residual compound remaining after photochemical treatment of platelets with a psoralen for pathogen inactivation. More specifically, the studies were performed using a range of platelet volumes (e.g., 200 mL-450 mL; 50 mL volume increments) and using a single initial input concentration of the psoralen compound, amotosalen (S-59) by changing input volume. For each volume tested, units of platelets, prepared in 47% plasma/53% PAS, were pooled and split into two to three individual units, each in an illumination container of an INTERCEPT® Blood System processing set. The individual units were each dosed with amotosalen from an initial starting concentration (e.g., stock solution) at a volume needed to achieve a final 70 μM target concentration for each platelet volume, mixed well, and subjected to illumination with UVA light. The doses of UVA light tested for each volume included, for example, one or more light doses ranging from 2.5 J/cm^2 to 6.5 J/cm^2. (e.g., 2.5-4.5 J/cm^2 for 200 mL, 3.5-4.0 J/cm^2 for 250 mL 4.5-6.5 J/cm^2 for 300 mL, 5.2 J/cm^2 for 350 mL, 5.5-6.5 J/cm^2 for 400 mL, 6.4-6.5 J/cm^2 for 450 mL). UVA treatment was performed in the illumination container using an illuminator device with LED light (e.g., narrow bandwidth) having peak wavelength between 340-350 nm. Samples were collected both pre- and post-UVA illumination for HPLC analysis of amotosalen concentration.
From the multiple studies above, UVA light doses that provided low residual amotosalen levels (e.g., less than 7.5 μM) post-UVA treatment were selected for each specified platelet volume. These light doses are shown in Table 1 below, together with a corresponding measured volume of platelets, which the light dose may be used in conjunction with. This exemplary light dose and volume relationship identified in the studies may be further defined in the graph of FIG. 4A, which plots UVA light dose versus volume for achieving low residual amotosalen levels.
Each of the 40 μM, 50 μM, 60 μM and 70 μM test conditions used 250 mL sample volumes and UVA light doses of 3.8 J/cm^2. Amotosalen concentrations were determined before and after illumination with UVA.

As to `Cc1oc2c(C)c3oc(=O)cc(C)c3cc2c1COCCN` [S-59, 3-(2-aminoethoxymethyl)-2,5,9-trimethylfuro[3,2-g]chromen-7-one], the “Pre-UVA S-59” value reads like this: (200 mL, target 70 μM, UVA 3.2 J/cm^2) 71.1 ± 2.4 µM; (250 mL, target 70 μM, UVA 3.8 J/cm^2) 71.5 ± 3.7 µM; (300 mL, target 70 μM, UVA 4.5 J/cm^2) 72.5 ± 3.2 µM; (350 mL, target 70 μM, UVA 5.2 J/cm^2) 74.8 ± 2.0 µM; (400 mL, target 70 μM, UVA 6.0 J/cm^2) 69.8 ± 2.6 µM; (450 mL, target 70 μM, UVA 6.4 J/cm^2) 68.5 ± 0.8 µM. Besides, the Pre-UVA amotosalen concentration was 40.8 ± 1.2 µM (target 40 μM, 250 mL, UVA 3.8 J/cm^2); 50.7 ± 3.3 µM (target 50 μM, 250 mL, UVA 3.8 J/cm^2); 62.0 ± 0.3 µM (target 60 μM, 250 mL, UVA 3.8 J/cm^2); 71.5 ± 3.2 µM (target 70 μM, 250 mL, UVA 3.8 J/cm^2).
